Results of unrelated studies side by side (data: NIAID ChemDB).

Shared fields: tests in culture; agent: HIV-1

Neighbouring rows are from separate reports.

Cc1cc(S(=O)(=O)Nc2nc(N)n(-c3ccccn3)n2)c(S)cc1Cl ; read-out: EC50 ; cells: CEM + CEM-SS ; strain or isolate: RF ; read by: cytopathic effect / XTT ; result: 100 µM
C[N+](C)(C)C.C[N+](C)(C)C.C[N+](C)(C)C.C[N+](C)(C)C.O=S(=O)([O-])c1cc(N=Nc2cc(S(=O)(=O)[O-])c3cccnc3c2O)ccc1/C=C/c1ccc(N=Nc2cc(S(=O)(=O)[O-])c3cccnc3c2O)cc1S(=O)(=O)[O-] ; read-out: EC50 ; cells: CEM ; read by: XTT ; result: 0.17 µM
COC(=O)[C@H](C)NP(=O)(OC[C@@H]1CC[C@H](n2cc(C)c(=O)[nH]c2=O)O1)Oc1ccc(Cl)cc1 ; read-out: EC50 ; cells: PBMC ; strain or isolate: IIIB ; read by: p24 ; result: 2.1 µM
CC(C)(C)NC(=O)c1ccccc1C[C@@H](O)[C@H](Cc1ccccc1)NC(=O)[C@H](CC(N)=O)NC(=O)c1ccc2ccccc2n1 ; read-out: EC50 ; cells: CEM + CEM-SS ; strain or isolate: RF ; read by: cytopathic effect / XTT ; result: 0.02 µM
O=c1[nH]c(=O)n([C@@H]2C[C@H](O)[C@@H](CO)S2)cc1/C=C/Br ; read-out: EC50 ; cells: MT-4 ; strain or isolate: IIIB ; read by: cytopathic effect / MTT ; result: >500 µM
CC(C)C1=C2[C@H]3CC[C@@H]4[C@@]5(C)CC[C@H](OC(=O)[C@H]6C[C@@H](C(=O)O)C6(C)C)C(C)(C)[C@@H]5CC[C@@]4(C)[C@]3(C)CC[C@@]2(CC(=O)NCC(C)(C)NC(=O)c2ccc(N3CCS(=O)(=O)CC3)cc2)CC1=O ; read-out: EC50 ; cells: MT-2 ; strain or isolate: 92HT599 ; read by: p24 / ELISA ; result: <1 µM
COC(=O)[C@H](C)NP(=O)(OC[C@H]1O[C@@H](n2cc(C)c(=O)[nH]c2=O)C[C@@H]1N=[N+]=[N-])Oc1ccc(OC)cc1 ; read-out: EC50 ; cells: PBMC ; strain or isolate: IIIB ; read by: p24 ; result: 0.057 µM
C=C1[C@H](CO)OC[C@@H]1n1cnc2c(=O)[nH]cnc21 ; read-out: EC50 ; result: >100 µM
CC1NCCn2c1nc(C(=O)NCc1ccc(F)cc1)c(O)c2=O ; read-out: EC50 ; cells: MT-4 ; read by: p24 ; result: <50 µM
CCN1CCN(CCNCC[C@@]23CC[C@]4(C)[C@H](CC[C@@H]5[C@@]6(C)CC[C@H](OC(=O)[C@H]7C[C@@H](C(=O)O)C7(C)C)C(C)(C)[C@@H]6CC[C@]54C)C2=C(C(C)C)C(=O)C3)CC1 ; read-out: EC50 ; cells: MT-2 ; strain or isolate: 92HT599 ; read by: p24 / ELISA ; result: <1 µM
CN(C)CC1c2nc(C(=O)NCc3ccc(F)cc3)c(O)c(=O)n2CCN1C(=O)C(=O)N(C)C ; read-out: EC50 ; cells: MT-4 ; read by: p24 ; result: <50 µM
COCCOc1ccc(CNCC[C@@]23CC[C@]4(C)[C@H](CC[C@@H]5[C@@]6(C)CC[C@H](OC(=O)[C@H]7C[C@@H](C(=O)O)C7(C)C)C(C)(C)[C@@H]6CC[C@]54C)C2=C(C(C)C)C(=O)C3)cc1 ; read-out: EC50 ; cells: MT-2 ; strain or isolate: 92HT599 ; read by: p24 / ELISA ; result: <1 µM
Cc1cc(/C=C/C#N)cc(C)c1Nc1ccnc(Nc2ccc(C#N)cc2)n1 ; read-out: EC50 ; cells: TZM-bl ; strain or isolate: LAI ; read by: luminescence ; changes: 3'-PPT mutations ; result: 0.00052 µM
CN1CCn2c(nc(C(=O)NCc3ccc(F)cc3)c(O)c2=O)C1(C)C ; read-out: EC50 ; cells: MT-4 ; read by: p24 ; result: <1 µM
CC(C)C1=C2[C@H]3CC[C@@H]4[C@@]5(C)CC[C@H](OC(=O)[C@H]6C[C@@H](C(=O)O)C6(C)C)C(C)(C)[C@@H]5CC[C@@]4(C)[C@]3(C)CC[C@@]2(CC(=O)NCC2(N)CC2)CC1=O ; read-out: EC50 ; cells: MT-2 ; strain or isolate: 92HT599 ; read by: p24 / ELISA ; result: <1 µM
COC(=O)[C@H](C)NP(=O)(OC[C@@H]1CC[C@H](n2cc(C)c(=O)[nH]c2=O)O1)Oc1ccc(OC)cc1 ; read-out: EC50 ; cells: PBMC ; strain or isolate: IIIB ; read by: p24 ; result: 1.3 µM
CC(C)C1=C2[C@H]3CC[C@@H]4[C@@]5(C)CC[C@H](OC(=O)[C@H]6C[C@@H](C(=O)O)C6(C)C)C(C)(C)[C@@H]5CC[C@@]4(C)[C@]3(C)CC[C@@]2([C@@H](O)CNC(=O)C2(NC(=O)c3ccc(Cl)cc3)CNC2)CC1=O ; read-out: EC50 ; cells: MT-2 ; strain or isolate: 92HT599 ; read by: p24 / ELISA ; result: <1 µM
COc1cc2c(cc1Cc1cccc(Cl)c1F)c(=O)c(C(=O)O)cn2[C@H](CO)C(C)C ; read-out: EC50 ; cells: TZM-bl ; strain or isolate: LAI ; read by: luminescence ; result: 0.00075 µM
N[C@@H](CCC(=O)O)C(=O)N[C@@H](CCC(=O)O)C(=O)N[C@@H](CCC(=O)O)C(=O)O ; read-out: EC90 ; cells: CEM/MOLT-4 ; strain or isolate: MN ; read by: syncytia ; result: >100 µg/mL
Cc1cn([C@@H]2C[C@H](O)[C@@H](CO)S2)c(=O)[nH]c1=O ; read-out: EC50 ; cells: MT-4 ; strain or isolate: IIIB ; read by: cytopathic effect / MTT ; result: >100 µM
O=C1Nc2ccc(Cl)cc2[C@@](C#CC2CC2)(C(F)(F)F)O1 ; read-out: EC50 ; cells: MT-4 ; read by: MTT ; changes: K103N ; result: 0.0863 µM
CC(=O)N(Cc1ccccc1)C1CN(C)CCn2c1nc(C(=O)NCc1ccc(F)cc1)c(O)c2=O ; read-out: EC95 ; cells: MT-4 ; read by: p24 ; result: <1 µM
C=C(C)[C@]12C[C@@H](C)[C@]34OC5(CCCCCCC[C@H](C)[C@@H]([C@H](C)C(=O)O)[C@@H]3C(=O)[C@H](O)[C@@]3(CO)O[C@H]3[C@H]4[C@H]1O5)O2 ; read-out: EC50 ; cells: MT-4 ; strain or isolate: NL4-3 ; read by: luciferase ; result: 9.22 µM
COC(=O)[C@H](C)NP(=O)(OC[C@H]1O[C@@H](n2cc(C)c(=O)[nH]c2=O)C[C@@H]1N=[N+]=[N-])Oc1ccc(Br)cc1 ; read-out: EC50 ; cells: PBMC ; strain or isolate: IIIB ; read by: p24 ; result: 0.006 µM
C=C(C)[C@]12C[C@@H](C)[C@]34OC5(CCCCCCC[C@@H](C)[C@@H]([C@H](C)C(=O)OC)[C@@H]3C(=O)[C@H](O)[C@@]3(CO)O[C@H]3[C@H]4[C@H]1O5)O2 ; read-out: EC50 ; cells: MT-4 ; strain or isolate: NL4-3 ; read by: luciferase ; result: 1.17 µM
CC(C)C1=C2[C@H]3CC[C@@H]4[C@@]5(C)CC[C@H](OC(=O)[C@H]6C[C@@H](C(=O)O)C6(C)C)C(C)(C)[C@@H]5CC[C@@]4(C)[C@]3(C)CC[C@@]2(CC(=O)NC2(c3ccc(Cl)cc3)CCCCC2)CC1=O ; read-out: EC50 ; cells: MT-2 ; strain or isolate: 92HT599 ; read by: p24 / ELISA ; result: <1 µM
CN1CCN(S(=O)(=O)N(C)C2COCCn3c2nc(C(=O)NCc2ccc(F)cc2)c(O)c3=O)CC1 ; read-out: EC50 ; cells: MT-4 ; read by: p24 ; result: <1 µM
C=C1[C@H](CO)OC[C@@H]1n1ccc(=O)[nH]c1=O ; read-out: EC50 ; result: >100 µM
CC(=O)N1CCn2c(nc(C(=O)NCc3ccc(F)cc3)c(O)c2=O)C(N(C)C(=O)C(=O)N(C)C)C1 ; read-out: EC95 ; cells: MT-4 ; read by: p24 ; result: <1 µM
COC(=O)[C@H](C)NP(=O)(OC[C@@H]1C=C[C@H](n2cc(C)c(=O)[nH]c2=O)O1)Oc1ccccc1 ; read-out: EC50 ; cells: PBMC ; strain or isolate: IIIB ; read by: p24 ; result: 0.002 µM

For reference, 4 entries again:

compound	read-out	cells	strain or isolate	read by	changes	result
CC(C)(C)NC(=O)c1ccccc1C[C@@H](O)[C@H](Cc1ccccc1)NC(=O)[C@H](CC(N)=O)NC(=O)c1ccc2ccccc2n1	EC50	CEM + CEM-SS	RF	cytopathic effect / XTT		0.02 µM
CN1CCN(S(=O)(=O)N(C)C2COCCn3c2nc(C(=O)NCc2ccc(F)cc2)c(O)c3=O)CC1	EC50	MT-4		p24		<1 µM
CC(C)C1=C2[C@H]3CC[C@@H]4[C@@]5(C)CC[C@H](OC(=O)[C@H]6C[C@@H](C(=O)O)C6(C)C)C(C)(C)[C@@H]5CC[C@@]4(C)[C@]3(C)CC[C@@]2(CC(=O)NCC(C)(C)NC(=O)c2ccc(N3CCS(=O)(=O)CC3)cc2)CC1=O	EC50	MT-2	92HT599	p24 / ELISA		<1 µM
N[C@@H](CCC(=O)O)C(=O)N[C@@H](CCC(=O)O)C(=O)N[C@@H](CCC(=O)O)C(=O)O	EC90	CEM/MOLT-4	MN	syncytia		>100 µg/mL

ECn: concentration that inhibits the pathogen or its effect by n%. Blank or dashed fields: not listed here.